Q: How did the “CC50, corresponding concentration of Ag+” value (HEp-2) turn out when Li^+[Ag^+2Cys2^−(OH^−)2(NH3)2] [Ag-2S] was run?
A: Its value is 5.3 (1.08 Ag+) μg/mL.

Q: What about the “CC50, corresponding concentration of Ag+” value (HT-29) of the same substance?
A: Its value is 15.9 (3.24 Ag+) μg/mL.

Q: And the “CC50, corresponding concentration of Ag+” value (L41)?
A: Its value is 21.2 (4.32 Ag+) μg/mL.
